Values quoted from earlier work in patent publication US9961896B2, “Cleaning liquid” (priority 2013, dated 2018).

Columns and labels:
[1] = test system: Cryptosporidium parvum; details: 4 ppm chlorine at pH 7 for 25 hours; cited from earlier work
[2] = test system: Cryptosporidium parvum; details: 4 ppm chlorine at pH 7 for 25 hours; cited from earlier work; remark: listed apart in the source

chlorine
decrease in cell viability, DAPI/PI assay [1]: no decrease in cell viability
reduction in cell viability, excystation assay [2]: 40%
